This data set relates to O=CC(O)COP(=O)(O)O. As to the kind of experiment: purified protein. The following applies: 0.1 M TEA-HCl pH 7.4, 10 mM EDTA, 0.2 mM NADH, 21 °C, G3P 0 to 5 mM, G3P to DHAP direction.

In general, Km refers to the substrate concentration at which the rate is half of its maximum. The term kcat denotes the number of substrate molecules converted per active site and unit of time at saturation. The kcat/Km is the second-order rate constant that governs catalysis at low substrate concentration. As for SmTPI (Schistosoma mansoni; C221D), the Km came out at 2840 ± 880 µM, the kcat worked out at 1220 s⁻¹ and the kcat/Km is 427000 M⁻¹ s⁻¹.
SmTPI (Schistosoma mansoni; C221K): the Km turned out to be 2570 ± 930 µM, the kcat amounted to 1400 s⁻¹ and the kcat/Km stood at 541000 M⁻¹ s⁻¹.
On to SmTPI (Schistosoma mansoni; C221S), for which the Km was determined as 870 ± 120 µM, the kcat turned out to be 2490 s⁻¹ and the catalytic efficiency (kcat/Km) was found to be 2.84e+06 M⁻¹ s⁻¹.
Regarding SmTPI (Schistosoma mansoni; C221Y), the Km amounted to 1600 ± 500 µM, the kcat amounted to 875 s⁻¹ and the kcat/Km stood at 545000 M⁻¹ s⁻¹.

These data come from PMC6980832, “Crystal structures of Triosephosphate Isomerases from Taenia solium and Schistosoma mansoni provide insights for vaccine rationale and drug design against helminth parasites” (PLoS Neglected Tropical Diseases, 2020).
